Measurements: patent publication US20190300927A1, “METABOLIC ASSAY FOR BACTERIAL GROWTH AND GRAM TYPING” (SELUX DIAGNOSTICS, INC., priority 2018, published 2019)

Test system: Pseudomonas aeruginosa
Experiment: Metabolic indicator detection of P. aeruginosa growth (FIG. 1, AST protocol)
Format: cell-based
Settings: growth detection in <5 hours

Substance: iodonitrotetrazolium
- metabolism of the indicator by P. aeruginosa / detection of P. aeruginosa growth: not capable of detecting P. aeruginosa growth
